Laboratory results reported in PubChem BioAssay AID485341 (National Center for Advancing Translational Sciences (NCATS), 2010).
This is a selection; strong and weak results do not stand in their true shares. Active and inactive are the calls of the source. Calls come from the whole dose curve; as a rule, active = well fitted inhibition curve with a large enough effect; inconclusive = small, poorly fitted or top-dose-only effect; inactive = no such curve, though single readings can be large or run the other way.

Protein sequences, listed by entry. Tags and fused reporters are not part of them. Lines headed by an entry give the natural chain unless they say otherwise; changes in a name come on top.
UniProt P00811: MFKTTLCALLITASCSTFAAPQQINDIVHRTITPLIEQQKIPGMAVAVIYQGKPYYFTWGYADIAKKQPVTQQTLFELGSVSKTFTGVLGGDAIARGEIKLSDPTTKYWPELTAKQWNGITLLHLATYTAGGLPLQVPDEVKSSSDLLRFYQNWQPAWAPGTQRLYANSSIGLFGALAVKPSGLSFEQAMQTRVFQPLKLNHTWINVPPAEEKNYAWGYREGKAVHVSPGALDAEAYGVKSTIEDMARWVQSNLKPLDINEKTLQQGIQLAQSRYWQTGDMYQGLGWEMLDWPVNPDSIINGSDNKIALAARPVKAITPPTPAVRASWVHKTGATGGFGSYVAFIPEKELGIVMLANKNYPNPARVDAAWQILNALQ

Each compound was assayed against Beta-lactamase (Escherichia coli (strain K12)) (UniProt P00811) (assay: qHTS Inhibitors of AmpC Beta-Lactamase (assay without detergent)). Details: AmpC nitrocefin hydrolysis, absorbance 480 nm, 0.0001% Triton; at 57.1 µM (top of the series) unless noted.
Method: NIH Molecular Libraries Probe Production Network [MLPCN] NIH Chemical Genomics Center [NCGC] Assay Provider: Professor Brian Shoichet, UCSF Assay Overview: This aggregation profiling approach exploits the sensitivity of aggregate formation to detergent. Inhibition of b-lactamase is measured in the presence and absence of 0.01% Triton X-100. This particular assay had the prescence of 0.01% Triton X-100. See Pubchem assay "Promiscuous and Specific Inhibitors of AmpC Beta-Lactamase (assay without detergent)" for related screen. Compounds that inhibit only in the absence of detergent are considered likely promiscuous aggregators. A screen of 1,030 compounds was performed in Brian Shoichet's lab in 96-well format. AmpC activity was measured by following the absorbance at 480 nm. Nitrocefin is a chromogenic substrate: while nitrocefin is yellow (lmax 390 nm), the product of its hydrolysis is red (lmax 486 nm, 17,000 M-1). AmpC beta lactamase was provided by Shoichet Lab, UCSF.
Buffer: 20 mM phosphate buffer, pH 7.0 Triton X-100: No Detergent screen: 0.0001%, Detergent screen: 0.01%. Reagents/Controls: Buffer in columns 3 and 4 as negative control (no enzyme). 5.3 nM AmpC in columns 1, 2, 5-48. Titration of UCSF compound 9 control (from 10 mM, then 1:2) pin-transferred to column 2. Column 1 is neutral (100% activity). Assay Steps: Six uL of reagents were dispensed to 1536-well Greiner black clear bottom plates. Compounds and controls (23 nL) were transferred via Kalypsys PinTool. The plates were incubated for 15 min at room temperature, and then 2 uL of 800 uM solution of nitrocefin was added to start the reaction. The plates were immediately transferred to and read every 20 seconds for 4 min on ViewLux (Perkin-Elmer) High-throughput CCD imager using 480 nm absorbance protocol. During dispense, reagent bottles were kept submerged into 4 deg C water bath. Keywords: NIH Roadmap, MLSCN, MLI, MLSMR, qHTS, NCGC, AmpC Beta-Lactamase, Aggregation
Note: nearly all actives have a fitted effect of over 20% in size.

Row | SMILES | activity change, negative = inhibition
1 | COC(=O)c1cc2c(s1)N=C(c1ccccc1)N(C)P2(=O)N1CCOCC1 (stereo not drawn) | inactive: -8.87%
2 | Cc1ccc(OP(=O)(Nc2ccccn2)Oc2ccc(C)cc2)cc1 | inactive: -8.35% [at 11.4 µM]
3 | CC(=O)NC(SC(=S)N(CC(C)C)CC(C)C)C(Cl)(Cl)Cl (stereo not drawn) | inactive: -15.6%
4 | CC(C)(C)C(=O)NC(Sc1ccccc1)C(Cl)(Cl)Cl (stereo not drawn) | inactive: -4.66%
5 | O=P1(Nc2nc3ccc(Cl)cc3s2)COc2ccccc2O1 (stereo not drawn) | inactive: -18.6%
6 | CCOc1ccc(C2=NCC(CBr)S2)cc1 (stereo not drawn) | inactive: 97.3%
7 | CC(=O)Nc1ccc([As](=O)(O)O)c(O)c1 | inactive: -4.88%
8 | CC(=O)Nc1ccc(Oc2c([N+](=O)[O-])cc([N+](=O)[O-])cc2[N+](=O)[O-])cc1 | inactive: -11.5%
9 | Cc1ccccc1CN(C)C(=O)COC(=O)C(O)(c1ccccc1)c1ccccc1 | inactive: 10.4%
10 | C[C@H]1OP(=O)(Oc2ccccc2)C[C@@H]2O[C@@H]21 (stereo partly drawn) | inactive: -8.48%
11 | C[C@@H]1C=CCP(=O)(Oc2ccccc2)O1 (stereo partly drawn) | inactive: -7.36%
12 | CC(=O)c1ccc(N2CC2c2ccncc2)cc1 (stereo not drawn) | inactive: -10.1%
13 | O=[As](O)(c1cccc(O)c1)c1cccc(O)c1 | inactive: -11.2%
14 | O=C(OC1CN2CCC1CC2)c1ccc(Cl)cc1 (stereo not drawn) | inactive: -4.97%
15 | O=[As](O)(O)c1cccnc1 | inactive: -10.8%
16 | COc1cc(C(=O)NCC2(N3CCOCC3)CCCCC2)cc(Cl)c1OC(C)C | inactive: -4.09%
17 | CS(=O)(=O)c1ccc(Cl)c(NC(=O)COC(=O)C(O)(c2ccccc2)c2ccccc2)c1 | inactive: 19.2%
18 | COc1cc(C2NCCC3(OCCO3)C2(C)C)cc(OC)c1OC (stereo not drawn) | inactive: -12.9%
19 | CCOP(=O)(Nc1cccc2ccccc12)OCC | inactive: -5.21%
20 | Nc1cccc2c([As](=O)(O)O)cccc12 | inactive: -0.533%
21 | Cc1ccc(NCCc2c([N+](=O)[O-])cc([N+](=O)[O-])cc2[N+](=O)[O-])cc1 | inactive: -51%

Row | SMILES | activity change, negative = inhibition
22 | CCCOP(=S)(Nc1nc(N)cc(=O)[nH]1)OCCC | inactive: -44.4%
23 | Nc1ccccc1[As](=O)(O)c1ccccc1 | inactive: -11.1%
24 | O=C(O)COc1ccc([As](=O)(O)O)cc1[N+](=O)[O-] | inactive: -0.794%
25 | CCOP1(=S)c2c(C)nn(CCC#N)c2N=C(c2ccccc2F)N1C (stereo not drawn) | inactive: 78.6%
26 | O=P(Nc1nccs1)(Oc1ccccc1)Oc1ccccc1 | inactive: -33.3%
27 | O=P(Nc1nccs1)(c1ccccc1)c1nc2ccccc2s1 (stereo not drawn) | inactive: -13.9%
28 | CS(=O)(=O)c1cc([N+](=O)[O-])c2no[n+]([O-])c2c1 | inactive: -8.64%
29 | N#CCCN(C(=O)COC(=O)C(O)(c1ccccc1)c1ccccc1)c1ccc(F)cc1 | inactive: 81.8%
30 | CCOP1(=S)c2c(C)nn(CCC#N)c2N=C(c2ccc(F)cc2)N1C (stereo not drawn) | inactive: 96.1%
31 | CN(C(=O)Cc1ccccc1)[C@@H]1CC[C@]2(CCCO2)C[C@H]1N1CCCC1 | inactive: 19.3%
32 | O=[N+]([O-])c1ccc2c(c1)nnn2O | inactive: -0.202%
33 | NC(=O)Nc1ccc([As](=O)(O)O)cc1 | inactive: -19.1%
34 | CN(C)C1(CNC(=O)c2ccc(S(C)(=O)=O)cc2)CCCCC1 | inactive: -8.18%
35 | O=C(/C=C/c1ccccc1)OC1CN2CCC1CC2 (stereo not drawn) | inactive: -2.31%
36 | Cc1nn(-c2ccccc2)c2c1P(=O)(N1CCOCC1)N(C)C(c1ccccc1)=N2 (stereo not drawn) | inactive: 55.5%
37 | CC1CCC(C(C)C)C(OP(=O)(Nc2ccccn2)c2ccccc2)C1 (stereo not drawn) | inactive: 81.8%
38 | Cc1ccc(C(=O)OC2CN3CCC2CC3)cc1 (stereo not drawn) | inactive: -8.8%
39 | Nc1cccc([As](=O)(O)c2ccccc2)c1 | inactive: -8.27%
40 | O=[As](O)(c1cccs1)c1cccs1 | inactive: 5.44%
41 | Cc1ccc(OCC(=O)OC2CN3CCC2CC3)cc1 (stereo not drawn) | inactive: -13%
42 | O=P1(Nc2ccc(Br)cn2)COc2ccccc2OC1 | inactive: -12.9%

Row | SMILES | activity change, negative = inhibition
43 | NS(=O)(=O)c1cccc(NC(=O)COC(=O)C(O)(c2ccccc2)c2ccccc2)c1 | inactive: -45.8%
44 | O=P1(Nc2ncccn2)COc2ccccc2OC1 | inactive: -11.3%
45 | Clc1n[nH]nc1-c1nn[nH][15n]1 | inactive: -6.93%
46 | CC(C)(C)C(=O)NC(Sc1ncccn1)C(Cl)(Cl)Cl (stereo not drawn) | inactive: -5.22%
47 | O=P1(Nc2ccccn2)COc2ccccc2OC1 | inactive: -11.7%
48 | CCC1=CC2Cc3nc4ccc(Cl)cc4c(N)c3C(C1)C2 (stereo not drawn) | inactive: -34.7%
49 | CCOP(=O)(NC(=NC(C)c1ccccc1)NC(C)c1ccccc1)OCC (stereo not drawn) | inactive: 150%
50 | CCOP(=O)(Nc1ccc(C)cn1)OCC | inactive: 3.31%
51 | CC(C)/C=N\N=C(\N)N[N+](=O)[O-] | inactive: -19.8%
52 | CN(C(=O)Cc1ccc(Cl)c(Cl)c1)[C@@H]1CCCC[C@H]1N1CCCC1 | inactive: -15.7%
53 | O=[As](O)(c1ccccc1Br)c1ccccc1Br | inactive: -8.11%
54 | COc1ccccc1CNC(=O)COC(=O)C(O)(c1ccccc1)c1ccccc1 | inactive: -10.3%
55 | O=C(COc1ccccc1)OC1CN2CCC1CC2 (stereo not drawn) | inactive: -23.6%
56 | O=C(Nc1ccncc1[N+](=O)[O-])c1ccc([N+](=O)[O-])cc1[N+](=O)[O-] | inactive: -26.1%
57 | COP1(=S)c2c(C)nn(CCC#N)c2N=C(c2ccc(F)cc2)N1C (stereo not drawn) | inactive: 45.4%
58 | CCC(C)N(CC(C)C)C(=S)SC(NC(C)=O)C(Cl)(Cl)Cl (stereo not drawn) | inactive: 29.9%
59 | O=C(OC1CN2CCC1CC2)c1cccc([N+](=O)[O-])c1 (stereo not drawn) | inactive: -16.7%
60 | CCOC(=O)c1ccc(NC(=O)C(C)(CCl)SC)cc1 (stereo not drawn) | inactive: -2.91%
61 | CCCCOc1ccc(C(=O)NCC2(N3CCCCC3)CCCCC2)cc1OC | inactive: 39.4%
62 | Cc1cc(SC(NC(=O)c2ccccc2)C(Cl)(Cl)Cl)nc(C(C)C)n1 (stereo not drawn) | inactive: -9.71%
63 | CCOC(=O)Nc1ccc([As](=O)(O)O)c(O)c1 | inactive: -21.8%

Row | SMILES | activity change, negative = inhibition
64 | O=P(Nc1ccccn1)(c1cccc2ccccc12)c1cccc2ccccc12 | inactive: 2.36%
65 | Cc1cc(SC(NC=O)C(Cl)(Cl)Cl)ncn1 (stereo not drawn) | inactive: 5.25%
66 | O=[N+]([O-])c1ccc(Nc2ccc(Oc3ccc([N+](=O)[O-])cc3[N+](=O)[O-])cc2)c([N+](=O)[O-])c1 | inactive: -19.6%
67 | CCOC(=O)Nc1cccc([As](=O)(O)O)c1 | inactive: -17.1%
68 | Cc1ccc(OP(=O)(Nc2ccc([N+](=O)[O-])cn2)Oc2ccc(C)cc2)cc1 | inactive: -35.5%
69 | Cc1ccc2nc3c(c(C)c2c1)CC(C(Cl)Cl)S3 (stereo not drawn) | inactive: -32.5%
70 | C[As](=O)(O)c1cccc(C(=O)O)c1 | inactive: -10.4%
71 | O=[As](O)(c1ccc(O)cc1)c1ccccc1O | inactive: -10.3%
72 | COc1cc(C(=O)NCC2(N3CCOCC3)CCCCC2)ccc1OCC(C)C | inactive: 58.9%
73 | CC(C)NC(=O)NP(=O)(Oc1ccccc1)Oc1ccccc1 | inactive: -18.7%
74 | CCN(CC)C(=S)SC(NC=O)C(Cl)(Cl)Cl (stereo not drawn) | inactive: -7.44%
75 | O=[N+]([O-])c1cc([N+](=O)[O-])c(-c2ccn[nH]2)s1 | inactive: -1.64%
76 | ClCCSc1nnc(-c2cccnc2)o1 | inactive: -1.15%
77 | CC(C)c1ccc(OP(=O)(Nc2ccccn2)Oc2ccccc2F)cc1 (stereo not drawn) | inactive: -25.3%
78 | COc1ccc2nc(NP(=O)(c3ccccc3)c3ccccc3)sc2c1 | inactive: -19.9% [at 11.4 µM]
79 | COc1cc(I)ccc1[As](=O)(O)O | inactive: -6.12%
80 | Cc1c2c(nc3ccccc13)SC(C(Cl)Cl)C2 (stereo not drawn) | inactive: -57.6%
81 | O=C(OC1CN2CCC1CC2)C12CC3CC(CC(C3)C1)C2 (stereo not drawn) | inactive: 4.21%
82 | Cc1cc(=O)[nH]c(N[N+](=O)[O-])n1 | inactive: -11.9%
83 | COc1ccc(N/C(=N/P(=O)(N2CCOCC2)N2CCOCC2)N2CCOCC2)cc1 | inactive: -16.8%
